Values joined by “and” are separate entries in the source; they are usually repeats but may differ in a detail not shown here. Equal values may be shown once. Read-outs that look alike come from different tables or passages of the source.
Tested on: SARS-CoV-2
Assay type: cell-based

Row | SMILES | SI (SI = CC50/EC50, Vero E6 cells) | SI
1 | Cc1ccc2c(c1)-c1c(ssc1=S)C(C)(C)N2C(=O)COc1ccc2ccccc2c1 [Compound 3c] | > 37 and >36.86 | 
2 | CC1CCCCN1C(=S)Sc1c(-c2ccccc2)c2cc(Cl)ccc2[nH]c1=O (stereo not shown) [Compound 6c, 6-chloro-2-oxo-4-phenyl-1,2-dihydroquinolin-3-yl 2-methylpiperidine-1-carboditioate] |  | >1.2
3 | Cc1ccc2c(c1)N(C(=O)COc1ccc3ccccc3c1)C(C)(C)c1ssc(=S)c1-2 [Compound 3b] | > 86 and >86.21 | 
4 | O=c1[nH]c2ccc(Cl)cc2c(-c2ccccc2)c1SC(=S)N1CCCCC1 [Compound 6b, 6-chloro-2-oxo-4-phenyl-1,2-dihydroquinolin-3-yl piperidine-1-carboditioate] |  | >4.75
5 | CN1CCN(c2nc(Nc3cccc4ccccc34)nc(Nc3cccc4ccccc34)n2)CC1 [Compound 9c, 6-(4-methylpiperazin-1-yl)-N,N ^′ -di(naphthalen-1-yl)-1,3,5-triazine-2,4-amine] | >1.62 | 
6 | CCC(CC)COC(=O)[C@H](C)N[P@](=O)(OC[C@H]1O[C@@](C#N)(c2ccc3c(N)ncnn23)[C@H](O)[C@@H]1O)Oc1ccccc1 [remdesivir, reference compound] | > 56 and 56.5 | 
7 | c1ccc2cc(Nc3nc(Nc4ccc5ccccc5c4)nc(N4CCCCCC4)n3)ccc2c1 [Compound 9a, 6-(azepan-1-yl)-N,N ^′ -di(naphthalen-2-yl)-1,3,5-triazine-2,4-diamine] | >11.9 | 
8 | Clc1ccc2nc(OCc3ccccc3Cl)c(N3CCOCC3)c(-c3ccccc3)c2c1 [Compound 6a, 6-chloro-2-[(2-chlorobenzyl)oxy]-3-(morpholin-4-yl)-4-phenylquinoline] | >45.1 | 
9 | COc1ccc2c(c1)-c1c(ssc1=S)C(C)(C)N2C(=O)COc1ccc2ccccc2c1 [Compound 3d] | >10.64 | 
10 | c1ccc(Nc2nc(Nc3ccccc3)nc(N3CCCCCC3)n2)cc1 [Compound 9b, 6-(azepan-1-yl)-N,N’-diphenyl-1,3,5-triazine-2,4-diamine] | >7.57 | 

Reference: publication PMC9457583, “New Chemicals Suppressing SARS-CoV-2 Replication in Cell Culture” (Molecules, 2022)
